Anti-infective test results gathered from many reports (values: NIAID ChemDB through PubChem).

Common to all: whole-cell or culture tests; species: HIV-1

Rows are shuffled and stem from different studies. ECn is the concentration giving n% inhibition of infection, replication or growth.

C[C@H]1CN(C(=O)c2ccccc2)CCN1C(=O)C(=O)c1c[nH]c2cccc(F)c12 ; read by: luciferase ; measure: EC50 ; cells: HeLa + HELA CD4+/CCR5 ; result: <10 µM
Cc1cc(C)c(S(=O)(=O)OCC2OC3OC4C(CO)OC(OC5C(CO)OC(OC6C(CO)OC(OC7C(CO)OC(OC8C(CO)OC(OC9C(C[n+]%10ccccc%10)OC(OC2C(O)C3O)C(O)C9O)C(O)C8O)C(O)C7O)C(O)C6O)C(O)C5O)C(O)C4O)c(C)c1 ; read by: syncytia ; measure: EC50 ; cells: MOLT-4 ; strain: LAV-1 ; result: <42 µg/mL
Nc1ccc(S(=O)(=O)NC(Cc2ccccc2)C(F)(F)C(=O)[C@@H](Cc2ccccc2)NC(=O)O[C@H]2CCOC2)cc1 ; read by: p24 ; measure: EC90 ; cells: CEM ; strain: IIIB ; result: 1 µM
Cc1ccc(C)c(C(C)S(=O)(=O)c2ccc(C)c[n+]2[O-])c1 ; changes: RT-Y181C ; read by: syncytia ; measure: EC50 ; cells: CEM ; strain: IIIB ; result: 60 µg/mL
CC(C)CN(C[C@@H](O)[C@H](Cc1ccccc1)NC(=O)O[C@H]1CCOC1)S(=O)(=O)c1ccc(N)cc1 ; read by: p24 ; measure: EC50 ; cells: MT-4 ; strain: IIIB ; result: <0.08 µM
Nc1cccc(S(=O)(=O)N(CC2CCCC2)C[C@@H](O)CN(CCc2ccccc2)C(=O)O[C@H]2CCOC2)c1 ; read by: p24 ; measure: EC50 ; cells: CEM ; strain: IIIB ; result: <0.1 µM
CC(C)C1=C2[C@H]3CC[C@@H]4[C@@]5(C)CC[C@H](OC(=O)[C@H]6C[C@@H](C(=O)O)C6(C)C)C(C)(C)[C@@H]5CC[C@@]4(C)[C@]3(C)CC[C@@]2([C@@H](O)CNCc2ccc(O[C@@H]3CCOC3)cc2)CC1=O ; read by: p24 / ELISA ; measure: EC50 ; cells: MT-2 ; strain: 92HT599 ; result: <1 µM
COc1ccc(S(=O)(=O)N(CC(O)CN(CCc2ccccc2)C(=O)[C@@H](NC(=O)OCc2ccccc2)C(C)C)CC2CCCC2)cc1 ; read by: p24 ; measure: EC90 ; cells: CEM ; strain: IIIB ; result: 0.1 µM
Nc1cccc(C(=O)N2CCN(C(=O)C(=O)c3c[nH]c4cccc(Cl)c34)CC2)c1 ; read by: luciferase ; measure: EC50 ; cells: HeLa + HELA CD4+/CCR5 ; result: <10 µM
Cc1cccc(CS(=O)(=O)c2cccc[n+]2[O-])c1 ; changes: RT-L100I ; read by: syncytia ; measure: EC50 ; cells: CEM ; strain: IIIB ; result: ≥20 µg/mL
COc1ccc(S(=O)(=O)N(CC(C)C)CC(O)CCN2CSCC2C(=O)NC(C)(C)C)cc1 ; read by: p24 ; measure: EC90 ; cells: CEM ; strain: IIIB ; result: 1 µM
Cc1ccc(C)c(C(C)S(=O)(=O)c2c(C)ccc[n+]2[O-])c1 ; changes: RT-E103K ; read by: syncytia ; measure: EC50 ; cells: CEM ; strain: IIIB ; result: 4 µg/mL
Cc1nc2ccc(C(=O)NC(C)(C)CNC[C@H](O)[C@@]34CC[C@]5(C)[C@H](CC[C@@H]6[C@@]7(C)CC[C@H](OC(=O)[C@H]8C[C@@H](C(=O)O)C8(C)C)C(C)(C)[C@@H]7CC[C@]65C)C3=C(C(C)C)C(=O)C4)cc2[nH]1 ; read by: p24 / ELISA ; measure: EC50 ; cells: MT-2 ; strain: 92HT599 ; result: <1 µM
Cc1ccc(C(C)S(=O)(=O)c2c(C)ccc[n+]2[O-])c(C)c1 ; changes: RT-E103K ; read by: syncytia ; measure: EC50 ; cells: CEM ; strain: IIIB ; result: 60 µg/mL
CC(C)C1=C2[C@H]3CC[C@@H]4[C@@]5(C)CC[C@H](OC(=O)[C@H]6C[C@@H](C(=O)O)C6(C)C)C(C)(C)[C@@H]5CC[C@@]4(C)[C@]3(C)CC[C@@]2(CC(=O)NCc2ccc(CN3CCS(=O)(=O)CC3)cc2)CC1=O ; read by: p24 / ELISA ; measure: EC50 ; cells: MT-2 ; strain: 92HT599 ; result: <1 µM
O=C(C(=O)N1CCN(C(=O)c2ccccc2F)CC1)c1c[nH]c2ccccc12 ; read by: RT activity ; measure: EC50 ; cells: MT-2 ; strain: BRU ; result: <10 µM
Cc1cn([C@H]2C=C[C@@H](CO)O2)c(=O)[nH]c1=O ; read by: cytopathic effect / MTT ; measure: EC50 ; cells: MT-4 ; strain: RD 22-RTwt Recombinant ; result: 0.3 µM
O=C(C(=O)N1CCN(C(=O)c2ccccc2)CC1)c1c[nH]c2cc(Cl)c(Cl)cc12 ; read by: luciferase ; measure: EC50 ; cells: HeLa + HELA CD4+/CCR5 ; result: <10 µM
Cc1ccc(C)c(C(Cl)S(=O)(=O)c2cc(C)cc[n+]2[O-])c1 ; changes: RT-E103K ; read by: syncytia ; measure: EC50 ; cells: CEM ; strain: IIIB ; result: >4 µg/mL
CC(C)CN(C(=O)C(=O)C(=O)C(Cc1ccccc1)NC(=O)OC1COCOC1)S(=O)(=O)c1ccccc1 ; read by: p24 ; measure: EC90 ; cells: CEM ; strain: IIIB ; result: 1 µM
Cc1ccc(F)c2c(C(=O)C(=O)N3CCN(C(=O)c4ccccc4)CC3)c[nH]c12 ; read by: luciferase ; measure: EC50 ; cells: HeLa + HELA CD4+/CCR5 ; result: <10 µM
COc1ccc(C)cc1CS(=O)(=O)c1cccc[n+]1[O-] ; changes: RT-K103N ; read by: syncytia ; measure: EC50 ; cells: CEM ; strain: IIIB ; result: 44 µg/mL
CC(C)C1=C2[C@H]3CC[C@@H]4[C@@]5(C)CC[C@H](OC(=O)[C@H]6C[C@@H](C(=O)O)C6(C)C)C(C)(C)[C@@H]5CC[C@@]4(C)[C@]3(C)CC[C@@]2(CC(=O)NCC(CCCN)NC(=O)c2ccc(Cl)cc2)CC1=O ; read by: p24 / ELISA ; measure: EC50 ; cells: MT-2 ; strain: 92HT599 ; result: <1 µM
Cc1ccc(C)c(CS(=O)(=O)c2cccc[n+]2[O-])c1 ; changes: RT-Y188H ; read by: syncytia ; measure: EC50 ; cells: CEM ; strain: IIIB ; result: 8.8 µg/mL
Cc1nc(C(=O)N2CCN(C(=O)C(=O)c3c[nH]c4cccc(F)c34)CC2)cs1 ; read by: luciferase ; measure: EC50 ; cells: HeLa + HELA CD4+/CCR5 ; result: <10 µM
CC(C)C1=C2[C@H]3CC[C@@H]4[C@@]5(C)CC[C@H](OC(=O)[C@H]6C[C@@H](C(=O)O)C6(C)C)C(C)(C)[C@@H]5CC[C@@]4(C)[C@]3(C)CC[C@@]2([C@@H](O)CNC(=O)c2nc3ccccc3[nH]2)CC1=O ; read by: p24 / ELISA ; measure: EC50 ; cells: MT-2 ; strain: 92HT599 ; result: <1 µM
COc1ccc(S(=O)(=O)N(CC(C)C)C[C@@H](O)CCN(CC2CCCC2)S(=O)(=O)c2ccncc2)cc1 ; read by: p24 ; measure: EC50 ; cells: CEM ; strain: IIIB ; result: <1 µM
CCO[C@@H]1Cc2cc(C(F)(F)F)ccc2C1N1CCN(C2(C)CCN(C(=O)c3c(C)ncnc3C)CC2)C[C@@H]1C ; read by: p24 ; measure: EC50 ; cells: PBMC ; strain: Ru570 ; result: 0.002 µM
CC(C)C1=C2[C@H]3CC[C@@H]4[C@@]5(C)CC[C@H](OC(=O)[C@H]6C[C@@H](C(=O)O)C6(C)C)C(C)(C)[C@@H]5CC[C@@]4(C)[C@]3(C)CC[C@@]2(CC(=O)NCc2nccn2C)CC1=O ; read by: p24 / ELISA ; measure: EC50 ; cells: MT-2 ; strain: 92HT599 ; result: <1 µM
O=C(C(=O)N1CCN(C(=O)c2ccno2)CC1)c1c[nH]c2cccc(F)c12 ; read by: luciferase ; measure: EC50 ; cells: HeLa + HELA CD4+/CCR5 ; result: <10 µM
Clc1cc(CN2CCCNCCNCCCNCC2)cc(Cl)n1 ; read by: p24 ; measure: EC50 ; cells: PBMC ; strain: X4 clinical isolate #10 ; result: 2.6 µM